From patent US20100183613A1, “METHODS OF USING MEVALONATE DECARBOXYLASE (MVD) ANTAGONISTS” (NOVARTIS AG, priority 2008, published 2010)

Test system: Dengue NGC virus
Experiment: Dengue NGC live virus infection in K562 cells, FACS (anti-E/anti-NS1 double positive cells)
Format: cell-based
Conditions: K562 infection assay, CC50 over EC50
Procedure: For compound testing, K562 infection system was used. […] The cell viability is measured by Celltiter Glo.
To determine the EC50 (effective concentration of 50% inhibition of virus growth) and the cytotoxity CC50 (concentration of 50% cell death), a dose response curve covering at least four different concentrations was done in K562 infection. The decrease of the percentage of the dengue positive cells was then plotted against the concentrations of inhibitors, using a nonlinear regression analysis to obtain the EC50. CC50 was calculated using the same method using the cell viability over the same range of inhibitor concentrations.

For `C=C(CC[C@]12O[C@H](C(=O)O)[C@@](O)(C(=O)O)[C@](C(=O)O)(O1)[C@H](OC(=O)/C=C/[C@@H](C)C[C@@H](C)CC)[C@H]2O)[C@@H](OC(C)=O)[C@H](C)Cc1ccccc1` [Zaragozic Acid, Zaragozic acid A], the “therapeutic index (TI) for inhibition of the virus over cell viability” value was 6 fold.
Hymeglusin was tested, and the “therapeutic index (TI) for inhibition of the virus over cell viability” value was 12 fold.
